Publication PMC12486822

System: E. coli DH10B carrying pTU689 (PenI)
Assay: Broth microdilution MIC, isogenic E. coli producing PenI
Conditions: relative to vector control

SMILES	increase of MIC by expression of wild-type blaPenI [fold]
CO/N=C(\C(=O)N[C@@H]1C(=O)N2C(C(=O)[O-])=C(C[N+]3(C)CCCC3)CS[C@H]12)c1csc(N)n1	> 100
CC(C)(O/N=C(\C(=O)N[C@@H]1C(=O)N2C(C(=O)[O-])=C(C[n+]3ccccc3)CS[C@H]12)c1csc(N)n1)C(=O)O	> 100
